The text below walks through data of patent publication US20140357845A1 (published 2014).

The experiment has as its target H5 mini-HA A/Vietnam/1203/2004 (influenza A virus H5N1, UniProt Q6DQ18 9-559). Kind of experiment: FACS.

B1: CR9114 (antibody, V domains shown)
VH: QVQLVQSGAEVKKPGSSVKVSCKSSGGTSNNYAISWVRQAPGQGLDWMGGISPIFGSTAYAQKFQGRVTISADIFSNTAYMELNSLTSEDTAVYFCARHGNYYYYSGMDVWGQGTTVTVSS
VL: SYVLTQPPAVSGTPGQRVTISCSGSDSNIGRRSVNWYQQFPGTAPKLLIYSNDQRPSVVPDRFSGSKSGTSASLAISGLQSEDEAEYYCAAWDDSLKGAVFGGGTQLTVL
As for B1, the binding result is “binds”.
